Measured values from patent US8883077B2, “Disinfecting, nonbleaching N-halamine for use with contact lens” (Auburn University, priority 2010, dated 2014).

Assay: Bleaching of blue dye in ACUVUE 2 contact lens soaked in Unisol 4 (visual and UV/VIS)

Compound | time to complete disappearance of blue color, visual observation (100 mg/L in Unisol 4) [weeks] | time to complete disappearance of blue color, visual observation (500 mg/L in Unisol 4) | blue color of contact lens, visual observation (100 mg/L or 500 mg/L in Unisol 4, storage for 2 months) | bleaching by UV/VIS spectra (absorption bands near 600 nm) (500 ppm and 100 ppm in Unisol 4, refreshed daily, 2 months (FIG. 1))
CC1(C)CC(O)CC(C)(C)N1Cl [compound 2, 1-chloro-2,2,6,6-tetramethyl-4-piperidinol, reference compound] | ≤ 2 | within a week |  | 
CC1(C)NC(=O)C(C)(C)N1Cl [compound 1, 1-chloro-2,2,5,5-tetramethyl-4-imidazolidinone] |  |  | did not appear to change | little bleaching occurred
